Results from PMC3406249 (Hepatology (Baltimore, Md.), 2012).

Test system: HCVpp packaged with envelope proteins from major genotypes
Details: 12 h

Sequence: MANAGLQLLGFILAFLGW [CL58]
- pIC50: 5.30 to 6.22

pIC50: −log10 of the molar value. No end group written: not given here.
